Test [1] concerns the target SARS-CoV-2 spike protein, WH1 variant, on pseudovirus (SARS-CoV-2.SctΔ19). As to the kind of experiment: cell-based or functional assay.
In test [2] the target is SARS-CoV-2 spike protein, D614G variant, on pseudovirus. As to the kind of experiment: cell-based or functional assay.

In the case of S2E12, the IC50 (µg/ml), pseudotyped virus neutralization in test [1] came to 0.0005 µg/mL.

Consider S309, for which the results for the IC50 (µg/ml), pseudotyped virus neutralization in test [1] and in test [2] were 0.274 µg/mL and 0.0802 µg/mL, respectively.

For the origin of these results see patent EP4349860A1, “Anti-sars-cov-2 antibodies” (dated 2024).
